We go through 1 molecule from patent US20260061042A1, “POLYNUCLEOTIDE COMPOSITIONS AND USES THEREOF” (Pfizer Inc., priority 2024, published 2026).

The data set relates to ExpiCHO cells. As to the kind of experiment: Expression of PapG recombinant proteins in ExpiCHO cells (Western blot, Octet). The format is cell-based. The settings on record: plasmid transfected ExpiCHO cells.

B1: PapG^LD N96S WTv1: WT PapG lectin domain (V1, first PapG operon), N96S removes non-native glycosylation, His-tagged; SEQ ID NO: 13 (protein)
chain: METDTLLLWVLLLWVPGSTGWNNIVFYSLGNVNSYQGGNVVITQRPQFITSWRPGIATVTWNQCNGPEFADGSWAYYREYIAWVVFPKKVMTKNGYPLFIEVHNKGSWSEENTGDSDSYFFLKGYKWDERAFDAGNLCQKPGETTRLTEKFNDIIFKVALPADLPLGDYSVTIPYTSGIQRHFASYLGARFKIPYNVAKTLPRENEMLFLFKNIGG
modifications: His tag
With B1, the “expression level in culture supernatant” value was “slightly higher levels compared to WT PapGLD”.
